# Laboratory results published in US20230384322A1, “COMPLEMENTOME ASSAY” (Complement Therapeutics Limited, priority 2020, published 2023).
# B1: FHR4: Complement Factor H-related 4 (FHR4A, FHR4B), SEQ ID NO:8 and 9 (protein, UniProt Q92496 20-578, looked up)
# Complement factor H-related …: EVKPCDFPEIQHGGLYYKSLRRLYFPAAAGQSYSYYCDQNFVTPSGSYWDYIHCTQDGWSPTVPCLRTCSKSDVEIENGFISESSSIYILNEETQYNCKPGYATAEGNSSGSITCLQNGWSTQPICIKFCDMPVFENSRAKSNGMWFKLHDTLDYECYDGYESSYGNTTDSIVCGEDGWSHLPTCYNSSENCGPPPPISNGDTTSFPQKVYLPWSRVEYQCQSYYELQGSKYVTCSNGDWSEPPRCISMKPCEFPEIQHGHLYYENTRRPYFPVATGQSYSYYCDQNFVTPSGSYWDYIHCTQDGWLPTVPCLRTCSKSDIEIENGFISESSSIYILNKEIQYKCKPGYATADGNSSGSITCLQNGWSAQPICIKFCDMPVFENSRAKSNGMRFKLHDTLDYECYDGYEISYGNTTGSIVCGEDGWSHFPTCYNSSEKCGPPPPISNGDTTSFLLKVYVPQSRVEYQCQSYYELQGSNYVTCSNGEWSEPPRCIHPCIITEENMNKNNIQLKGKSDIKYYAKTGDTIEFMCKLGYNANTSVLSFQAVCREGIVEYPRCE
# B2: FHL-1: truncated form of FH comprising the first seven CCP domains, SEQ ID NO:2 (protein, listed as Homo sapiens)
# chain: MRLLAKIICLMLWAICVAEDCNELPPRRNTEILTGSWSDQTYPEGTQAIYKCRPGYRSLGNVIMVCRKGEWVALNPLRKCQKRPCGHPGDTPFGTFTLTGGNVFEYGVKAVYTCNEGYQLLGEINYRECDTDGWTNDIPICEVVKCLPVTAPENGKIVSSAMEPDREYHFGQAVRFVCNSGYKIEGDEEMHCSDDGFWSKEKPKCVEISCKSPDVINGSPISQKIIYKENERFQYKCNMGYEYSERGDAVCTESGWRPLPSCEEKSCDNPYIPNGDYSPLRIKHRTGDEITYQCRNGFYPATRGNTAKCTSTGWIPAPRCTLKPCDYPDIKHGGLYHENMRRPYFPVAVGKYYSYYCDEHFETPSGSYWDHIHCTQDGWSPAVPCLRKCYFPYLENGYNQNYGRKFVQGKSIDVACHPGYALPKAQTTVTCMENGWSPTPRCIRVSFTL
# B3: FHR3: Complement Factor H-related 3, SEQ ID NO:6 and 7 (protein, UniProt Q02985 19-330, looked up)
# Complement factor H-related …: QVKPCDFPDIKHGGLFHENMRRPYFPVAVGKYYSYYCDEHFETPSGSYWDYIHCTQNGWSPAVPCLRKCYFPYLENGYNQNYGRKFVQGNSTEVACHPGYGLPKAQTTVTCTEKGWSPTPRCIRVRTCSKSDIEIENGFISESSSIYILNKEIQYKCKPGYATADGNSSGSITCLQNGWSAQPICINSSEKCGPPPPISNGDTTSFLLKVYVPQSRVEYQCQPYYELQGSNYVTCSNGEWSEPPRCIHPCIITEENMNKNNIKLKGRSDRKYYAKTGDTIEFMCKLGYNANTSILSFQAVCREGIVEYPRCE
# B4: FHR5: Complement Factor H-related 5, SEQ ID NO:10 (protein)
# chain: MLLLFSVILISWVSTVGGEGTLCDFPKIHHGFLYDEEDYNPFSQVPTGEVFYYSCEYNFVSPSKSFWTRITCTEEGWSPTPKCLRMCSFPFVKNGHSESSGLIHLEGDTVQIICNTGYSLQNNEKNISCVERGWSTPPICSFTKGECHVPILEANVDAQPKKESYKVGDVLKFSCRKNLIRVGSDSVQCYQFGWSPNFPTCKGQVRSCGPPPQLSNGEVKEIRKEEYGHNEVVEYDCNPNFIINGPKKIQCVDGEWTTLPTCVEQVKTCGYIPELEYGYVQPSVPPYQHGVSVEVNCRNEYAMIGNNMITCINGIWTELPMCVATHQLKRCKIAGVNIKTLLKLSGKEFNHNSRIRYRCSDIFRYRHSVCINGKWNPEVDCTEKREQFCPPPPQIPNAQNMTTTVNYQDGEKVAVLCKENYLLPEAKEIVCKDGRWQSLPRCVESTAYCGPPPSINNGDTTSFPLSVYPPGSTVTYRCQSFYKLQGSVTVTCRNKQWSEPPRCLDPCVVSEENMNKNNIQLKWRNDGKLYAKTGDAVEFQCKFPHKAMISSPPFRAICQEGKFEYPICE
# B5: FHR2: Complement Factor H-related 2, SEQ ID NO:4 and 5 (protein, UniProt P36980 19-270, looked up)
# Complement factor H-related …: EAMFCDFPKINHGILYDEEKYKPFSQVPTGEVFYYSCEYNFVSPSKSFWTRITCAEEGWSPTPKCLRLCFFPFVENGHSESSGQTHLEGDTVQIICNTGYRLQNNENNISCVERGWSTPPKCRSTISAEKCGPPPPIDNGDITSFLLSVYAPGSSVEYQCQNLYQLEGNNQITCRNGQWSEPPKCLDPCVISQEIMEKYNIKLKWTNQQKLYSRTGDIVEFVCKSGYHPTKSHSFRAMCQNGKLVYPSCEEK
# B6: FHR1: Complement Factor H-related 1, SEQ ID NO:3 (protein)
# chain: MWLLVSVILISRISSVGGEATFCDFPKINHGILYDEEKYKPFSQVPTGEVFYYSCEYNFVSPSKSFWTRITCTEEGWSPTPKCLRLCFFPFVENGHSESSGQTHLEGDTVQIICNTGYRLQNNENNISCVERGWSTPPKCRSTDTSCVNPPTVQNAHILSRQMSKYPSGERVRYECRSPYEMFGDEEVMCLNGNWTEPPQCKDSTGKCGPPPPIDNGDITSFPLSVYAPASSVEYQCQNLYQLEGNKRITCRNGQWSEPPKCLHPCVISREIMENYNIALRWTAKQKLYLRTGESAEFVCKRGYRLSSRSHTLRTTCWDGKLEYPTCAKR
# Assay: Complement protein levels in blood of COVID-19 patients by mass spectrometry (one-way ANOVA, ROC)
# Settings: first-test blood samples
row,Molecule,Level in blood of COVID-19 patients requiring assisted ventilation (group E) relative to healthy controls
1,B1,Statistically-significant elevations
2,B2,Statistically-significant elevations
3,B3,Statistically-significant elevations
4,B4,Statistically-significant elevations
5,B5,Statistically-significant elevations
6,B6,Statistically-significant elevations

# Some entries repeat one wording, which the source may state once for all of them.
